Experimental findings from US20240115717A1 (priority 2020, published 2024) are described below.

Chains of the proteins cited; added tags and fusions are not shown. Lines headed by an entry give the natural chain unless they say otherwise; changes in a name come on top.
UniProt O14786: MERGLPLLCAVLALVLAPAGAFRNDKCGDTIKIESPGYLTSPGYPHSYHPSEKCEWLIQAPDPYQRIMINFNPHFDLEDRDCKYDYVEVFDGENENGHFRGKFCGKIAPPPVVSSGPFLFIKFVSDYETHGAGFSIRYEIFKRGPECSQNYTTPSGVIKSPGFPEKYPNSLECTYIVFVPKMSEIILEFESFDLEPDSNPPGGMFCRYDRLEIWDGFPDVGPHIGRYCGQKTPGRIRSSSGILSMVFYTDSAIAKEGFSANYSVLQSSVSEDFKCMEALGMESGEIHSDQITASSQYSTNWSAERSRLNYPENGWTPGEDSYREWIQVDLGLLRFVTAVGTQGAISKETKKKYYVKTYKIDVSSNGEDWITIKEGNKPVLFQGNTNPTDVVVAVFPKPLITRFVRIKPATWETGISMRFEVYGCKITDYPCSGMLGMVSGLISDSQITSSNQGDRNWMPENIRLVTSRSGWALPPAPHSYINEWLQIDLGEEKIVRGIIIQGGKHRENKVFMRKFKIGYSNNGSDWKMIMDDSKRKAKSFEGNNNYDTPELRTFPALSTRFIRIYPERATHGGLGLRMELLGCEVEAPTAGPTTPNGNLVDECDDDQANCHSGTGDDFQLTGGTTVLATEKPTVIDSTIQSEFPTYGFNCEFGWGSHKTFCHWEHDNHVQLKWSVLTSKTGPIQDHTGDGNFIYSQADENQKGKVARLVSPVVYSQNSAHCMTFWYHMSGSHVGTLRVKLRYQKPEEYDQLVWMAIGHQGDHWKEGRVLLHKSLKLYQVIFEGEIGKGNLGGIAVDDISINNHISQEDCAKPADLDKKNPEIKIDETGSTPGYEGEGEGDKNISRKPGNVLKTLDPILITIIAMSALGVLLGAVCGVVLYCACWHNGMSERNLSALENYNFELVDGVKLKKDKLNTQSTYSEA

This assay concerns the target NRP1 (Homo sapiens, UniProt O14786). Type of assay: binding. The note with it: phage-displayed; 2.6×10^14 phage particles/mL; FIG. 3; in words.

As to Chlorotoxin [SEQ ID NO: 1], the NRP1 binding entry is “approximately equivalent binding to both MMP-2 and NRP1”.
